From PubChem BioAssay AID651820 (National Center for Advancing Translational Sciences (NCATS), 2012)
This is a selection; strong and weak results do not stand in their true shares. Results filed as inconclusive are left out. Activity calls are given as the source filed them. The call rests on the fitted dose curve; in most records, active means well fitted inhibition curve with a large enough effect; inconclusive means small, poorly fitted or top-dose-only effect, or another doubt; inactive means no such curve, though single readings can be large or run the other way.

assay: qHTS Assay for Inhibitors of Hepatitis C Virus (HCV); conditions: Huh7.5.1 HCVcc-Cre (HCVcc is cell-culture hepatitis C virus) infection, luciferase reporter, 44 h; series mostly up to 41.8 µM; activity change, negative = inhibition: at the top concentration
Excerpt: Hepatitis C virus (HCV) infects about 200 million people in the world. Many infected people progress to chronic liver disease including cirrhosis with a risk of developing liver cancer. To date, there is no effective vaccine for hepatitis C. Current therapy based on interferon is only effective in about half of the patients and is associated with significant adverse effects. The fraction of people with HCV who can complete a successful treatment is estimated to be no more than 10 percent. Recent development of direct-acting antivirals against HCV, such as protease and polymerase inhibitors, is promising but still requires combination with peginterferon and ribavirin for maximal efficacy. In addition, these agents are associated with high rate of resistance and many have significant side effects. Due to the lack of a culture system for infectious HCV, the search for new HCV drugs has been greatly hampered. […] High-throughput screening (HTS) with an infectious HCV system would cover the complete spectrum of potentially druggable targets in all stages of HCV lifecycle, and would have more biological relevance than other cell-based assays. Moreover, targeting several key processes in the viral life cycle may not only increase antiviral efficacy; more importantly, it may also reduce the capacity of the virus to develop resistance to the compound. The goal of this project is to identify novel HCV inhibitors as new therapies for hepatitis C, using a highly sensitive and specific assay platform which is based on a HCV infectious cell culture system established in the laboratory and adapted for high-throughput HCV drug screen. NIH Chemical Genomics Center [NCGC] NIH Molecular Libraries Probe Centers Network [MLPCN] MLPCN Grant: MH095511 Assay Submitter (PI): Jake Liang, NIDDK
The assay will start with plating 1,000 cells/well in 3 µL volume and culture for 4 h. Then 23 nL of compounds from the library collection will be added to each well, followed by adding 2.5 µL of HCVcc-Cre virus (~ 0.5 moi) and further cultured for 44 h before the luciferase assay. A volume of 4.5 µL luciferase substrates will be added to each well and the plates will be incubated at room temperature for 15 min. and then read for 15 sec. for the luciferase activity
On the % scale 0 is the no-effect control and ±100 the full control effect.

Row | SMILES | activity change, negative = inhibition | Potency
1 | CN1CCCCC1COC(=O)C1(O)c2ccccc2CCc2ccccc21 (stereo unspecified) | inactive: -9.05% | 
2 | O=[N+]([O-])c1cc([N+](=O)[O-])c(-c2cnn(-c3ccccc3)c2)c([N+](=O)[O-])c1 |  | active: 11.2 µM
3 | CCN(CC)CCCOC(=O)C(O)(c1ccccc1)c1ccccc1 | inactive: 11% | 
4 | Cc1cccc(C)c1OP(C)(=O)Nc1ccc(SC(F)(F)F)cc1 (stereo unspecified) |  | active: 12.6 µM
5 | CCN(CC)CC(O)COC(=O)C(O)(c1ccccc1)C1CCCCC1 (stereo unspecified) | inactive: -2.69% | 
6 | O=C(OCCCN1CCCC1)C(O)(c1ccccc1)C1CCCCC1 (stereo unspecified) | inactive: -11.9% | 
7 | CN(C)CCOC(=O)C(O)(c1ccccc1)C1CCCC1 (stereo unspecified) | inactive: 2.08% | 
8 | CCN(CC)CCCOC(=O)C(O)(c1ccccc1)C1CCCCC1 (stereo unspecified) | inactive: -8.19% | 
9 | O=C(OCCN1CCN(CCOCc2ccccc2)CC1)C(O)(c1ccccc1)c1ccccc1 | inactive: 16.7% | 
10 | CN(C)CCOC(=O)C(O)(c1ccccc1)C1CCCCC1 (stereo unspecified) | inactive: 8.83% | 
11 | O=[N+]([O-])c1ccc(OP2(=O)COCCO2)cc1 (stereo unspecified) | inactive: 9.15% | 
